Compound potency records, mixed from different reports. Data source: NIAID ChemDB in PubChem.

Shared fields: toxicity to cultured cells; cell line: HepG2; endpoint: CC50

a–b is a range or a potency band. CCn: concentration that lowers growth or viability of the cells by n%. Lines come from different laboratories, so protocols vary.

{"SMILES": "CNC(=O)c1c(C)c(-n2c(NC(C)C)nc3c(c2=O)C[C@@H](C)N(C(=O)c2ccc(Cl)c(C(F)(F)F)c2)C3)nn1C", "method": "luminescence", "value": ">50 µM"}
{"SMILES": "OCc1cn(-c2ccc(F)cc2)nc1-c1ccc(Cl)cc1", "method": "luminescence", "value": ">100 µM"}
{"SMILES": "Cc1c(C(=O)Nc2ccc(F)c(S(C)(=O)=O)c2)c(C)n(C)c1C(=O)C(=O)NC(C)(C)C", "method": "MTT", "value": ">30 µM"}
{"SMILES": "C#Cc1cn([C@@H]2O[C@H](CO)[C@@H](O)C2(F)F)c2ncnc(N)c12", "method": "XTT", "value": "0.4 µM"}
{"SMILES": "COc1cccc(Oc2ccc3c(NCCCNCc4ccco4)ccnc3c2)c1", "method": "fluorescence", "value": "15.5 µM"}
{"SMILES": "Cc1cc(NC(=O)c2c3c(c(C)n2C)C(=O)NC(C)CC3)ccc1F", "method": "MTT", "value": ">30 µM"}
{"SMILES": "COc1ccc(F)cc1CNCCCNc1ccnc2cc(Cc3ccc(F)cc3Cl)ccc12", "method": "fluorescence", "value": "2.46 µM"}
{"SMILES": "CNC(=O)CCCn1c(NC(C)C)nc2c(c1=O)C[C@@H](C)N(C(=O)c1ccc(Cl)c(C(F)(F)F)c1)C2", "method": "luminescence", "value": "42.9 µM"}
{"SMILES": "CC(C)(C)OC(=O)NCC(OC(=O)C(O)CO)c1ccc2c(c1)OCO2", "value": "<7.5 µM"}
{"SMILES": "O=C(Nc1ccc(C(F)(F)F)cc1)Nc1cccc(Cl)c1", "method": "luminescence", "value": "5.5 µM"}
{"SMILES": "Cc1cc(NC(=O)c2c(C)c(C(=O)C(=O)N[C@@H]3CC[C@H](O)C[C@@H]3F)n(C)c2C)ccc1F", "method": "MTT", "value": "5–30 µM"}
{"SMILES": "CNC(=O)C1CCC(n2c(NC(C)C)nc3c(c2=O)C[C@@H](C)N(C(=O)c2ccc(Br)c(C(F)(F)F)c2)C3)CC1", "method": "luminescence", "value": "21.3 µM"}
{"SMILES": "Clc1c(-c2ccccc2)nc2ccccn12", "method": "fluorescence", "value": ">100 µM"}
{"SMILES": "Cc1cc(NC(=O)c2c(C)c(C(=O)C(=O)NC3(C)CC(O)C3)n(C)c2CC2CC2)ccc1F", "method": "MTT", "value": ">30 µM"}
{"SMILES": "Nc1ncnc2c1c(-c1ccoc1)cn2[C@@H]1O[C@H](CO)[C@@H](O)[C@H]1F", "method": "XTT", "value": ">10 µM"}
{"SMILES": "Cc1csc(C2(NC(=O)c3c(C)c(C(=O)C(=O)NC(C)(C)C)n(C)c3C)CCCC2)n1", "method": "MTT", "value": ">30 µM"}
{"SMILES": "CC(C)N(Cc1cccc(OCCCCCC(=O)OC(=O)O)c1)C(=O)c1ccc(-c2cccc([N+](=O)[O-])c2)cc1", "value": ">20 µM"}
{"SMILES": "CCNc1ccnc2sc(C(=O)Cc3ccccc3)c(N)c12", "method": "luminescence", "value": "30 µM"}
{"SMILES": "CCC(CC)c1ccc2c(NCCCNCc3ccco3)ccnc2c1", "method": "fluorescence", "value": "6.76 µM"}
{"SMILES": "CNC(=O)c1ccc(-n2c(NC(C)C)nc3c(c2=O)C[C@@H](C)N(C(=O)c2ccc(Br)c(C(F)F)c2)C3)cc1", "method": "luminescence", "value": ">50 µM"}
{"SMILES": "Cc1c2c(c(C(=O)Nc3cc(F)c(F)c(F)c3)n1C)CCC(C)(C)NC2=O", "method": "MTT", "value": ">30 µM"}
{"SMILES": "CC(C)N(Cc1cccc(OCCCCCC(=O)OC(=O)O)c1)C(=O)c1ccc(-c2ccsc2)cc1", "value": ">20 µM"}
{"SMILES": "Cc1cc(NC(=O)c2c3c(c(C)n2C)C(=O)NC(C)(C)CC3)cnc1F", "method": "MTT", "value": ">30 µM"}
{"SMILES": "CCOC(=O)CCCCCOc1cccc(CN(C(=O)c2ccc(-c3cn(S(=O)(=O)c4ccccc4)c4ccccc34)cc2)C(C)C)c1", "value": ">20 µM"}
{"SMILES": "C#Cc1cn([C@@H]2O[C@H](CO)[C@@H](O)[C@H]2F)c2ncnc(N)c12", "method": "XTT", "value": "0.52 µM"}
{"SMILES": "Cc1cc(NC(=O)c2c(C)c(C(=O)C(=O)NCC(C)(C)O)n(C)c2C(C)C)ccc1F", "method": "MTT", "value": ">30 µM"}
{"SMILES": "O=C(COc1ccc2ccccc2c1)Nc1ccncc1", "method": "luminescence", "value": "61 µM"}
{"SMILES": "Nc1ncnc2c1c(-c1ccccc1)cn2[C@@H]1O[C@H](CO)[C@@H](O)[C@H]1F", "method": "XTT", "value": ">10 µM"}
{"SMILES": "CNC(=O)[C@H]1CC[C@H](n2c(NC(C)C)nc3c(c2=O)C[C@@H](C)N(C(=O)c2ccc(Cl)c(C(F)(F)F)c2)C3)C1", "method": "luminescence", "value": ">25 µM"}
{"SMILES": "CCCN(Cc1cccc(OCCCCCC(=O)OCC)c1)C(=O)c1ccc(-c2ccc3c(c2)OCO3)cc1", "value": ">20 µM"}
{"SMILES": "Cc1ccc(OCC(=O)N2CCCc3ccccc32)cc1", "method": "luminescence", "value": ">100 µM"}
{"SMILES": "Cc1c(C(=O)Nc2ccc(F)c(C(=O)O)c2)c(C)n(C)c1C(=O)C(=O)NC(C)(C)C", "method": "MTT", "value": ">30 µM"}
{"SMILES": "O=C(COc1ccc(Br)cc1)N1CCN(c2ccccc2F)CC1", "method": "luminescence", "value": "96 µM"}
{"SMILES": "CCn1c(C)c2c(c1C(=O)Nc1ccc(F)c(C)c1)CCC(C)(C)NC2=O", "method": "MTT", "value": ">30 µM"}
{"SMILES": "COc1ccc(Oc2ccc3c(NCCCNCc4cc(F)ccc4OC)ccnc3c2)cc1", "method": "fluorescence", "value": "7 µM"}
{"SMILES": "CCOC(=O)CCCCCOc1cccc(CN(C(=O)c2ccc(-c3cc(OC)cc(OC)c3)cc2)C(C)C)c1", "value": ">20 µM"}
{"SMILES": "COc1ccccc1Oc1ccc2c(NCCCNCc3cccc(OC)c3O)ccnc2c1", "method": "fluorescence", "value": "11.2 µM"}
{"SMILES": "CCOC(=O)CCCCCOc1cccc(CN(C(=O)c2ccc(-c3cc(OC)ccc3F)cc2)C(C)C)c1", "value": ">20 µM"}
{"SMILES": "CC(C)Nc1nc2c(c(=O)n1C1CCC(n3cccn3)CC1)C[C@@H](C)N(C(=O)c1ccc(Cl)c(C(F)(F)F)c1)C2", "method": "luminescence", "value": ">3.12 µM"}